Molecular target: T1, 6xHis-RelJ (Rv3357), purified (M. tuberculosis, UniProt P9WF25 1-91)
T1 construct: also called his-tagged RelJ; pET-3357; not shown: His6, N-terminal, kept
T1 sequence: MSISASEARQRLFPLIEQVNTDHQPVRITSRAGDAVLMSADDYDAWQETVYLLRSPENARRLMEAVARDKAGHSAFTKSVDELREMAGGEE
Assay: pull-down
Details: both partners purified

B1: GST-RelK (Rv3358), purified (natural protein)
chain: not shown
notes: also called GST-tagged RelK; pGEX-3358
B1: binds.
